Values from PubChem BioAssay AID624099 (ICCB-Longwood, 2012).
This is a random part of about 21,000 deposited reagents. Of all reagents, 497 (2.4%) got an active call. 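Higher z means weaker E2 silencing; only reporter increases were scored, and knock-downs that hurt cell survival may mask genuine repressor factors.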 Entries without a mark were called inactive. The numbers tell different reagents against one gene apart.

Assay: 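Host factors E2 relies on to silence an HPV18 LCR reporter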 (primary screen)
Cells: human C33A cervical carcinoma cells (HPV-negative) stably expressing BPV1 E2 and an HPV18 LCR luciferase reporter
Knock-down reagent: siRNA pool against human genes, 40 nM
Time to read-out: 72 h
Read-out: 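Per-well luciferase luminescence, z-scored on each plate against the plate mean and SD with control wells left out, then averaged across three replicate plates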
Reading the numbers: mean z-score and z-score: higher = stronger reporter signal, weaker E2 silencing
Active means: 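Hit if mean z-score reaches 2 and two or more of three replicate z-scores also reach 2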

gene	reagent	mean z-score	z-score, replicate A	z-score, replicate B	z-score, replicate C
TRIML1 (tripartite motif family like 1)	1	-0.1	0.05	-0.33	-0.02
KRT8P11 (keratin 8 pseudogene 11)	1	0.55	1.05	0.08	0.54
TTC6 (tetratricopeptide repeat domain 6)	1	-0.37	-0.34	-0.65	-0.13
TTC6 (tetratricopeptide repeat domain 6)	2	-0.19	0.14	-0.66	-0.05
LOC402598 (retired record)	1	-0.43	-0.06	-0.48	-0.75
UGT1A1 (UDP glucuronosyltransferase family 1 member A1)	1	-0.52	-0.51	-0.74	-0.31
LOC402539 (retired record)	1	-0.79	-0.76	-0.55	-1.05
UST (uronyl 2-sulfotransferase)	1	-1.5	-1.55	-1.49	-1.45
SLC35D1	1	-0.38	-0.14	-0.62	-0.39
BMPER (BMP binding endothelial regulator)	1	-0.76	-0.95	-0.5	-0.84
YY2 (YY2 transcription factor)	1	-0.24	-0.75	0.24	-0.2
LOC401545 (retired record)	1	0.67	0.74	0.58	0.7
LINC01011 (long independently transcribed non-coding RNA 1011)	1	0.18	0.94	0	-0.38
CABP1 (calcium binding protein 1)	1	0.6	0.8	0.5	0.51
ASB3 (ankyrin repeat and SOCS box containing 3)	1	-0.76	-0.97	-0.69	-0.62
DCSTAMP (dendrocyte expressed seven transmembrane protein)	1	1.19	1	1.45	1.14
SRRM1 (serine and arginine repetitive matrix 1)	1	0.05	0.11	0.09	-0.04
RPL7P6 (ribosomal protein L7 pseudogene 6)	1	-4.08	-3.46	-4.37	-4.41
ATAD3A (ATPase family AAA domain containing 3A)	1	1.52	2.05	1.45	1.07
PLAAT1 (phospholipase A and acyltransferase 1)	1	-0.23	-0.06	-0.05	-0.57
SLC17A7	1	0.38	0.33	0.44	0.36
LINC01205 (long independently transcribed non-coding RNA 1205)	1	0.81	0.96	0.52	0.95
NUSAP1 (nucleolar and spindle associated protein 1)	1	-0.19	-0.46	-0.19	0.08
FOXA2 (forkhead box A2)	1	2.97 (active)	3.22	2.83	2.87
CA9 (carbonic anhydrase 9)	1	1	0.75	1.04	1.23
GMIP (GEM interacting protein)	1	-0.98	-0.51	-1.19	-1.24
VPS28 (VPS28 subunit of ESCRT-I)	1	0.41	0.03	0.94	0.28
SLC12A5	1	-1.63	-1.71	-1.77	-1.42
CA2 (carbonic anhydrase 2)	1	-0.7	-0.7	-0.76	-0.63
QDPR (quinoid dihydropteridine reductase)	1	-0.19	0.61	-0.57	-0.61
INS (insulin)	1	0.69	0.71	0.74	0.62
SH2B3 (SH2B adaptor protein 3)	1	0.73	0.95	0.81	0.44
PAX6 (paired box 6)	1	-0.15	0.01	-0.32	
GRAMD1C (GRAM domain containing 1C)	1	-0.47	-0.75	-0.43	-0.25
TMEM167B (transmembrane protein 167B)	1	0.24	0.17	0.62	-0.08
FAM20A (FAM20A golgi associated secretory pathway pseudokinase)	1	0.04	-0.22	-0.07	0.42
YAE1 (YAE1 maturation factor of ABCE1)	1	0.6	0.38	0.49	0.91
GATA1 (GATA binding protein 1)	1	-0.97	-0.94	-0.84	-1.14
BORCS8-MEF2B (BORCS8-MEF2B readthrough)	1	2.51 (active)	2.52	2.1	2.91
ST8SIA5 (ST8 alpha-N-acetyl-neuraminide alpha-2,8-sialyltransferase 5)	1	0.63	0.82	0.54	0.54
TUBGCP6 (tubulin gamma complex component 6)	1	-0.33	-0.29	-0.36	-0.34
ATF7IP2 (activating transcription factor 7 interacting protein 2)	1	1.95	1.8	1.99	2.08
SAR1A (secretion associated Ras related GTPase 1A)	1	0.42	0.02	0.71	0.52
MAP1LC3BP1	1	1.62	1.52	1.53	1.82
SOX12 (SRY-box transcription factor 12)	1	-1.06	-0.97	-1.22	-0.99
DUSP11 (dual specificity phosphatase 11)	1	-0.96	-0.79	-1.31	-0.79
TERB1 (telomere repeat binding bouquet formation protein 1)	1	1.19	1.32	1.4	0.84
PPIAL4A (peptidylprolyl isomerase A like 4A)	1	0.27	0.07	0.39	0.36
ST20 (suppressor of tumorigenicity 20)	1	-0.26	-0.5	-0.49	0.22
CCDC42 (coiled-coil domain containing 42)	1	-0.82	-0.69	-0.68	-1.09
HCLS1 (hematopoietic cell-specific Lyn substrate 1)	1	-0.29	-0.31	-0.35	-0.2
PLCB1 (phospholipase C beta 1)	1	1.2	1.41	1.35	0.84
SLC6A16	1	1.05	0.7	0.9	1.55
ZNHIT6 (zinc finger HIT-type containing 6)	1	1.12	1.21	1.04	1.1
LRATD1 (LRAT domain containing 1)	1	0.84	0.94	0.92	0.66
NREP (neuronal regeneration related protein)	1	0.34	0.29	0.21	0.52
ACOT12 (acyl-CoA thioesterase 12)	1	0.01	0.45	-0.33	-0.07

Laid out differently: results already given.
{"gene":"LINC01011 (long independently transcribed non-coding RNA 1011)","reagent":1,"mean z-score":0.18,"z-score, replicate A":0.94,"z-score, replicate B":0,"z-score, replicate C":-0.38}
{"gene":"CABP1 (calcium binding protein 1)","reagent":1,"mean z-score":0.6,"z-score, replicate A":0.8,"z-score, replicate B":0.5,"z-score, replicate C":0.51}
{"gene":"ASB3 (ankyrin repeat and SOCS box containing 3)","reagent":1,"mean z-score":-0.76,"z-score, replicate A":-0.97,"z-score, replicate B":-0.69,"z-score, replicate C":-0.62}
{"gene":"DCSTAMP (dendrocyte expressed seven transmembrane protein)","reagent":1,"mean z-score":1.19,"z-score, replicate A":1,"z-score, replicate B":1.45,"z-score, replicate C":1.14}
{"gene":"SRRM1 (serine and arginine repetitive matrix 1)","reagent":1,"mean z-score":0.05,"z-score, replicate A":0.11,"z-score, replicate B":0.09,"z-score, replicate C":-0.04}
